Source: patent US10260089B2, “Compositions and methods for recognition of RNA using triple helical peptide nucleic acids” (The Research Foundation for the State University of New York, priority 2012, dated 2019)

Each substance was assayed on ribosomal A-site model RNA hairpin HRP6 (assay: ITC binding to bacterial ribosomal A-site model RNA hairpin HRP6 (Example 3)). Settings: sodium acetate buffer (pH 5.5); in parentheses.
Design: species or system Mycobacterium tuberculosis

Compared with NH2-CCCTGCTT [PNA10], NH2CTL-ArgGCTL-ArgT [GPNA13] is higher in “binding order, M. tuberculosis (HRP6)” value: 1.7 for the first, 8.0 for the second.

First: NH2-CCCTPexCTT [PNA14]
Second: NH2-CTGCTT [PNA12]
The “binding order, M. tuberculosis (HRP6)” value of the first is lower: 1.1 for the first, 1.6 for the second.

Compared with NH2-CCTGCTT [PNA11], NH2-CTL-ArgGCTT [GPNA12] is higher in “binding order, M. tuberculosis (HRP6)” value: 1.1 for the first, 1.8 for the second.

First: H-CCCTPCTT (cysteine pairing not given here) [PNA13]
Second: NH2-CCCTL-ArgGCTL-ArgT [GPNA10]
The “binding order, M. tuberculosis (HRP6)” value of the first is lower: 1.1 for the first, 2.9 for the second.

Ends that are not written are not given here.
